{"source": "paper PMC1316110", "about": "(Nucleic Acids Research, 2005)", "target": "MtuLigA (Mycobacterium tuberculosis, UniProt P9WNV1)", "format": "biochemical, M.tuberculosis", "details": "read-out: IC50 MtuLigA"}
{"substance": "Doxorubicin [Compound 7]", "values": [{"measurement": "IC50", "result": "46 ± 2.5", "unit": "µM"}]}
